# Measurements reported in PubChem BioAssay AID504761 (Drosophila RNAi Screening Center, 2011)
# Screen: 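Fly genes whose silencing reduces dengue virus type 2 infection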 (primary screen)
# Cells: D.Mel-2 cells from Drosophila
# Reagents: long dsRNA against Drosophila genes
# Challenge: infection with dengue virus type 2; dose and infection time not stated
# Measurement: 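Cells stained for dengue envelope protein and imaged; percent of infected cells per well on duplicate plates, ranked by infection, with stained nuclei counted for cell number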
# Reading the numbers: infection score: higher = more virus-infected cells; cell count: higher = more cells in the well
# Hit rule: 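Very low infection ranking in both replicate wells (chance probability at most 0.065), then a retest showing infection dropped 1.5-fold or more at p below 0.05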
# Meaning of the calls: active = confirmed: knock-down lowers infection; inactive = not picked or not confirmed
# The screen tested about 22,000 reagents; shown is an unselected part of those that have a named target and a result. In the full data, 116 (0.52%) are marked active. 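Calls depend on retest data that are not deposited; infection was ranked per plate without normalising between plates; the unit of the infection score is not given.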 Raw values vary from plate to plate and are shown uncorrected. A plus sign joins genes that one reagent is predicted to hit. Reagent sequences are not shown. The record does not give: the amount of reagent, the time to read-out.
target gene,amplicon,"infection score, replicate 1","infection score, replicate 2","cell count, replicate 1","cell count, replicate 2",Outcome
CG30472,DRSC22245,1.45,3.27,5859,6430,inactive
CG30472,DRSC26789,8.58,5.82,6762,7023,inactive
CG10560,DRSC14256,,13.7,414,5488,inactive
BORCS6,DRSC08514,1.92,0.54,5882,5692,inactive
BORCS6,DRSC25735,1.46,1.84,6296,6527,inactive
l(3)73Ah + CG32163,DRSC21888,24.6,19.8,4187,2900,inactive
CG4822,DRSC00669,12.8,,2875,589,inactive
PGRP-SA,DRSC19420,5.38,11.6,6208,6622,inactive
Wdr33,DRSC12162,1.76,16.6,6406,6339,inactive
Wdr33,DRSC27065,3.18,2.8,5857,6211,inactive
tous,DRSC04464,18.5,18.7,6262,6404,inactive
CG14613,DRSC20625,1,9.04,6297,7037,inactive
CG14613,DRSC27260,24.8,13.4,4558,6733,inactive
dod,DRSC20577,2.37,4.2,6336,5756,inactive
dod,DRSC26403,12.6,2.26,5931,6419,inactive
CG14113,DRSC10116,1.39,2.12,6248,6566,inactive
Tsp68C,DRSC09295,1.63,0.82,6197,6492,inactive
Tsp68C,DRSC28942,,0.24,247,411,inactive
RecQ5,DRSC11266,4.63,5.4,7013,7460,inactive
CG14968,DRSC08427,2.09,2.2,6270,6488,inactive
CG14968,DRSC28793,22.6,20.3,5751,5498,inactive
Glut1,DRSC07927,2.74,1.35,6315,5869,inactive
Glut1,DRSC08662,19.6,14,6097,4613,inactive
CG7903,DRSC16338,2.41,0.33,6546,600,inactive
CG7903,DRSC29953,4,3.48,6770,6302,inactive
ckn,DRSC06149,2.44,3.05,6446,6431,inactive
CG15278,DRSC02481,2.36,4.83,5793,6398,inactive
SoYb,DRSC02901,7.46,4.68,6197,6361,inactive
Aldh7A1,DRSC11083,3.55,8.37,6058,7121,inactive
sturkopf,DRSC08637,7.44,15.2,6116,5437,inactive
sturkopf,DRSC29932,5.18,10.1,6058,6406,inactive
Caper,DRSC02137,8.39,2.97,5710,5960,inactive
CG4806,DRSC04491,12.8,6.53,6243,6386,inactive
CG8841,DRSC07286,12.6,14.1,5593,6145,inactive
Tsp42Er,DRSC06183,2.59,12.9,6454,4564,inactive
PCB,DRSC05939,2.56,6.99,6101,6425,inactive
wds,DRSC18852,3.79,4.72,6175,6800,inactive
Polr3H,DRSC10817,2.18,4.03,6110,5727,inactive
CG8891,DRSC03120,13.8,4.19,4914,6467,inactive
CG8891,DRSC28308,7.03,4.54,1948,2293,inactive

7 entries already listed, ordered by “cell count, replicate 1”, highest first.
target gene,amplicon,"infection score, replicate 1","infection score, replicate 2","cell count, replicate 1","cell count, replicate 2",Outcome
RecQ5,DRSC11266,4.63,5.4,7013,7460,inactive
CG14968,DRSC08427,2.09,2.2,6270,6488,inactive
CG14113,DRSC10116,1.39,2.12,6248,6566,inactive
Tsp68C,DRSC09295,1.63,0.82,6197,6492,inactive
dod,DRSC26403,12.6,2.26,5931,6419,inactive
CG14968,DRSC28793,22.6,20.3,5751,5498,inactive
Tsp68C,DRSC28942,,0.24,247,411,inactive
